From patent US6323185, “Anti-viral guanosine-rich oligonucleotides and method of treating HIV” (The United States of America as represented by the …)

Biological target: CD4 (UniProt P01730 P01730:26-396)
Assay: competition; ID50, oligo with immobilized CD4
Settings: tags: immobilized, gp120 capture ELISA kit

**Q.** GGGTGGGTGGGTGGGTGG (ssDNA, all PS) [1174] was tested. Which IC50 did it give?
**A.** 450 nM
